# Values of other authors as cited in patent publication US20130115171A1, “NAV1.7-RELATED ASSAYS” (priority 2011, published 2013).
# Amino acid sequences for entries named in this document (tags omitted).
# UniProt P04775, whole entry, looked up: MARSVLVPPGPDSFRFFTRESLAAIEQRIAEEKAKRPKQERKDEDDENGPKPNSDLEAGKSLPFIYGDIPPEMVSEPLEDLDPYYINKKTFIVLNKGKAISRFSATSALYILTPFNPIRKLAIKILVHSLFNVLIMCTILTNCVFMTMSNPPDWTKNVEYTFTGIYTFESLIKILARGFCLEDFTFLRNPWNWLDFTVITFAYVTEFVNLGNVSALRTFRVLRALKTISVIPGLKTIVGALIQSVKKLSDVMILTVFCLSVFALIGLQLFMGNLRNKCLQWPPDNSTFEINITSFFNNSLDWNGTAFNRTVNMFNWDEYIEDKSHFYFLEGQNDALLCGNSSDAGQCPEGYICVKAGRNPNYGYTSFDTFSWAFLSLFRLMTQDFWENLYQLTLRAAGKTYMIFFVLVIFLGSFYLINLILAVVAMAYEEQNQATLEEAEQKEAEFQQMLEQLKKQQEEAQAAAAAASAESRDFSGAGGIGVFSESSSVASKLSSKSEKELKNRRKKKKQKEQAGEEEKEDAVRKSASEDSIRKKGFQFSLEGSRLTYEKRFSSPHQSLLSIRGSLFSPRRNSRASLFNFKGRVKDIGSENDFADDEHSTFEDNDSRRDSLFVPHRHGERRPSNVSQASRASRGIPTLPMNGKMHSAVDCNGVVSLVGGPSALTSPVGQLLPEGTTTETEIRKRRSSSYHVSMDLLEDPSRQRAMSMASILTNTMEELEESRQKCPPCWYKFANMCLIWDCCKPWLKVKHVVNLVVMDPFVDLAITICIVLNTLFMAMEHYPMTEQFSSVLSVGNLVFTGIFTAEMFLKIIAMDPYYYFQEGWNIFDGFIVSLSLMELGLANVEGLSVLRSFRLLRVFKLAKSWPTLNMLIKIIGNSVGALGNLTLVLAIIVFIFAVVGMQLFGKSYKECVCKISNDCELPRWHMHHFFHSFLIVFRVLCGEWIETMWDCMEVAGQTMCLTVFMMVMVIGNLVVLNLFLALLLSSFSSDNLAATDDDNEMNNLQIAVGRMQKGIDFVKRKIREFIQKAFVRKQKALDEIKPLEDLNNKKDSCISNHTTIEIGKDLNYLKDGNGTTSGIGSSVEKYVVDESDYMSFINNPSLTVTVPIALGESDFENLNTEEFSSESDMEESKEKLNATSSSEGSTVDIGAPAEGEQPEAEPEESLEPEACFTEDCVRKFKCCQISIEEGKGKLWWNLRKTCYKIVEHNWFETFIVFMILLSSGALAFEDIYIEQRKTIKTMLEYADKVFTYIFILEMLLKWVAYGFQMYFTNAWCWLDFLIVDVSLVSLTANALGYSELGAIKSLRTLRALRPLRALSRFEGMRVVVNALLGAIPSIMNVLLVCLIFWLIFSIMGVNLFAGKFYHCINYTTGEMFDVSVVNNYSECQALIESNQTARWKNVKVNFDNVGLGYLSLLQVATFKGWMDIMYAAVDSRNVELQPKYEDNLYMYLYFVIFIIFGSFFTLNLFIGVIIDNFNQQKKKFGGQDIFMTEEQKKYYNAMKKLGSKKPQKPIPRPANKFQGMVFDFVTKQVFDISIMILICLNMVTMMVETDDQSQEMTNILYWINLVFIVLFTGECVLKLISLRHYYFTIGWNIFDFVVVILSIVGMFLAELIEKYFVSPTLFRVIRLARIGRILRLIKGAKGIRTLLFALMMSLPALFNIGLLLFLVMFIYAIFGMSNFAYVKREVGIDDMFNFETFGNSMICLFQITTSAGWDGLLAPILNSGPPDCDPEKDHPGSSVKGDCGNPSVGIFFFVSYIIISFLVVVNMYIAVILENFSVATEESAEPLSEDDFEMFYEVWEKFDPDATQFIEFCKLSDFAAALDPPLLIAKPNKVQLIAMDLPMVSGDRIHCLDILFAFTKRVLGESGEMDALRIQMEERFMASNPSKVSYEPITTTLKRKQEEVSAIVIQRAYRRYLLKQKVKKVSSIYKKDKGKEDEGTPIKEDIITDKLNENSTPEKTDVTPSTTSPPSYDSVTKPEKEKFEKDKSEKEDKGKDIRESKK
# Key:
# NaV1.1 = NaV1.1 (Rattus norvegicus, UniProt P04774); settings: read-out: TTX IC50; cited from earlier work
# NaV1.2 = NaV1.2 (Rattus norvegicus, UniProt P04775); settings: read-out: TTX IC50; cited from earlier work
structure (smiles),measurement,setting,value
"NC1=N[C@H](O)[C@H]2[C@H]3O[C@]4(O)O[C@@H]([C@@H](O)[C@@]2(N1)[C@@H]4O)[C@]3(O)CO [TTX, tetrodotoxin]",IC50,NaV1.1,10 nM
same,IC50,NaV1.2,10 nM
